The values below come from US10456414B2, “Methods for treating HCV” (priority 2011, dated 2019).

Several values for one entry are separate records, joined by “and”; a condition that tells them apart may be missing. Equal values may be shown once.

Experiment [1] has as its system HCV genotype 1b replicon cells (Huh-luc). As to the kind of experiment: Antiviral combination studies with Compound 3, MacSynergy II. To be noted: for Synergy Volume / Antagonism Volume: in combination with Compound 3, mean ± standard deviation; for Interaction: in combination with Compound 3.
Experiment [2] shares this test system. As to the kind of experiment: Antiviral combination study, MacSynergy II (Biological Example 1).

As for `Fc1ccccc1-c1nc2ccn(Cc3ccc(-c4ccc(C(F)(F)F)cc4C(F)(F)F)nn3)cc-2n1` [Compound 1, 5-((6-(2,4-bis(trifluoromethyl)phenyl)pyridazin-3-yl)methyl)-2-(2-fluorophenyl)-5H-imidazo[4,5-c]pyridine], in experiment [1], the “Synergy Volume” value was 14.5 nM^2. Also, the Interaction result in experiment [2] (in combination with Compound 2) is “Additive (Additive if volumes are >−50 nM^2 and ≤50 nM^2)”. Besides, in experiment [2] (in combination with Compound 2, mean ± standard deviation), the “Antagonism Volume” value is on record as 0.07 ± 0.07 nM^2.

For `NC(=O)c1ncn([C@@H]2O[C@H](CO)[C@@H](O)[C@H]2O)n1` [Ribavirin, 1-β-D-ribofuranosyl-1H-1,2,4-Triazole-3-carboxamide, reference compound], in experiment [1], the Interaction result is “Moderate synergy (Moderate synergy if volumes are >50 and ≤100 nM^2)”; the “Antagonism Volume” value was determined as 1.6 ± 2.3 nM^2; the “Synergy Volume” value turned out to be 54 ± 14.1 nM^2.

Take IFN-α: in experiment [1], the Interaction entry was “Minor synergy (Minor synergy if volumes are >25 and <50 nM^2)”; the “Antagonism Volume” value is recorded as 0.15 ± 0.2 nM^2; the “Synergy Volume” value is 32 nM^2 and 32 ± 4.2 nM^2.
